Compound potency records, mixed from different reports. Data source: NIAID ChemDB in PubChem.

All rows: growth or infection tests; species: Measles virus; read by: cytopathic effect; endpoint: EC50

ECn is the concentration giving n% inhibition of infection, replication or growth.

compound	cell line	strain	value
Nc1ncnc2c1ncn2[C@H]1[C@H](O)[C@H](O)[C@]2(CO)O[C@H]12	VERO	-	0.4 µg/mL
Nc1nc2c(ncn2CCOCP(=O)(O)O)c(=O)[nH]1	-	Halonen	0.07 µg/mL
Nc1nccc2c1ncn2[C@@H]1C[C@H](CO)[C@@H](O)[C@H]1O	VERO	-	2 µg/mL
CCCc1cc(=O)oc2cc(O)cc(O)c12	-	-	100 µg/mL
Nc1ncnc2c1ncn2C[C@@H](O)[C@H](O)C(=O)O	VERO	-	40 µg/mL
C#Cc1c(C(N)=O)ncn1[C@@H]1O[C@H](CO)[C@@H](O)[C@H]1O	VERO	Sugiyama	0.5 µg/mL
CC(O)c1cn([C@@H]2O[C@H](CO)[C@@H](O)[C@H]2O)c2ncnc(N)c12	VERO	-	>40 µg/mL
Nc1nccc2c1ncn2[C@@H]1O[C@H](CO)[C@@H](O)[C@H]1O	VERO	-	≥40 µg/mL
NC(=O)c1ncn([C@@H]2O[C@H](CO)[C@@H](O)[C@H]2O)n1	CV-1	BIL	100 µg/mL
O=c1[nH]cnc2c1ncn2[C@@H]1C=C(CO)[C@@H](O)[C@H]1O	VERO	-	20 µg/mL
Nc1ncnc2c1ncn2C1CC(CO)[C@@H](O)[C@H]1O	VERO	-	≥4 µg/mL
Nc1ncnc2c1ccn2[C@@H]1O[C@H](CO)[C@H](O)[C@H]1O	VERO	-	≥40 µg/mL
COC(C)c1cn([C@@H]2O[C@H](CO)[C@@H](O)[C@H]2O)c2ncnc(N)c12	VERO	-	>40 µg/mL
Nc1ncnc2c1ncn2[C@@H]1C=C(CO)[C@@H](O)[C@H]1O	VERO	-	0.04 µg/mL
Nc1nccc2c1ncn2[C@@H]1C[C@H](CO)[C@@H](O)[C@H]1O	VERO	-	0.4 µg/mL
NC(=O)c1csc([C@@H]2O[C@H](CO)[C@@H](O)[C@H]2O)n1	VERO	Edmonston	42 µg/mL

For reference, 2 entries again:

compound	cell line	strain	value
Nc1nccc2c1ncn2[C@@H]1O[C@H](CO)[C@@H](O)[C@H]1O	VERO	-	≥40 µg/mL
NC(=O)c1csc([C@@H]2O[C@H](CO)[C@@H](O)[C@H]2O)n1	VERO	Edmonston	42 µg/mL

Lines come from different laboratories, so protocols vary. Blank or dashed fields: not listed here.